From patent publication US20150253335

Biological target: crypto-M. tuberculosis MAS (FAS/PKS hybrid) labeled with coumarin-PPant

B1: acyl carrier protein hydrolase (AcpH) from Pseudomonas fluorescens NCIMB 10586 (protein)
chain: MNYLAHLHLGGQLPAQLLGSLYGDFVKGRLQGQFSPQIEAAIQLHRSIDRFTDSHPLVGEALSRFSQTRRRYAGIVLDVFFDHCLARDWALYADQPLERFTSHVYQVLAAEPALPGRLAQIAPYMAADDWLGSYREFAVMEQVLRGISRRLTQPEELGYAMQELRVLYEPLSEDFRLFYPELQAFALQF
Question: Which “AcpH qualitative CP activity” value does the source give for B1 here?
Answer: no
